A mixed list of measured activities; the numbers were collected in NIAID ChemDB.

Shared fields: whole-cell or culture tests; agent: HIV-1; cell line: MT-4; endpoint: EC50

Conditions beyond the fields shown may differ between rows. ECn: concentration that inhibits the pathogen or its effect by n%. An empty or dashed field is not shown.

| smiles | strain | changes | method | value |
|---|---|---|---|---|
| CC(C)=CCN1C(C)C(=O)Nc2ccc(Cl)cc2S1(=O)=O | IIIB |  | cytopathic effect / MTT | 0.8 µM |
| CCC[C@@]1(CCc2ccccc2)CC(O)=C([C@H](CC)c2cccc(NS(=O)(=O)c3ccc(C(F)(F)F)cn3)c2)C(=O)O1 | IIIB |  | cytopathic effect / MTT | 0.376 µM |
| COC(=O)[C@@H](NC(=O)Cc1ccccc1)[C@@H]1N[C@@H](C(=O)NCCNC(=O)[C@@H]2N[C@@H]([C@H](NC(=O)Cc3ccccc3)C(=O)OC)SC2(C)C)C(C)(C)S1 | RF |  | cytopathic effect | >100 µM |
| CC(C)CN(C[C@@H](O)[C@H](Cc1ccccc1)NC(=O)O[C@H]1CCOC1)S(=O)(=O)c1ccc(N)cc1 | NL4-3 | PR-N88D | p24 | <0.02 µM |
| CCCCCCCSc1nsc(NC(=O)Nc2ccccc2)n1 | NL4-3 | RT A62V 69SS K70R E79K V118I M184V E203K L210W T215Y | cytopathic effect | 15.1 µM |
| CCOC(=O)C1CN(Cc2ccc(S(N)(=O)=O)cc2)CCC1Nc1nc(Oc2c(C)cc(C#N)cc2C)c2sccc2n1 | RES056 |  | MTT | ≥0.918 µM |
| COc1nc(=O)[nH]c2c1C(c1ccc(Cl)cc1)c1c(OC)nc(=O)[nH]c1O2 | L1 |  | cytopathic effect | >347 µM |
| CNC(=O)[C@@H](NC(=O)[C@H](OCc1ccc(F)cc1F)[C@H](O)[C@@H](O)[C@@H](OCc1ccc(F)cc1F)C(=O)N[C@H](C(=O)NC)C(C)C)C(C)C |  |  | cytopathic effect / XTT | 0.9 µM |
| CC(C)Nc1cccnc1N1CCN(C(=O)c2cc3cc(NS(C)(=O)=O)ccc3[nH]2)CC1 | IIIB | E138K | MTT | 0.06 µM |
| Cc1cc(C#N)cc(C)c1Oc1nc(NC2CCN(Cc3cccc(C(N)=O)c3)CC2)nc2sccc12 | IIIB | NNRTI-resistant (RT F227L V106A) | MTT | 0.0252 µM |
| CONC(=O)c1cn(Cc2ccncc2)c(Sc2ccccc2)c1C(C)C | IIIB |  | cytopathic effect / MTT | 1.9 µM |
| CCN[C@H]1CO[C@@H]2OCC[C@H](OC(=O)N[C@@H](Cc3ccccc3)[C@H](O)CN(CC(C)C)S(=O)(=O)c3ccc4nc(NC5CC5)sc4c3)[C@@H]21 | NL4-3 | L10I I54V K20R L24I V32I L33F M36I M46I I54M L63P K70Q V82I I84V L89M | p24 / luminescence | 0.062 µM |
| CCN1C(c2c(Cl)cccc2Cl)c2cccn2-c2ccc(Cl)cc2S1(=O)=O | IIIB |  | cytopathic effect / MTT | >4.8 µM |
| CCOCc1cn(Cc2ccncc2)c(Sc2ccccc2)c1C(C)C | IIIB |  | cytopathic effect / MTT | 7 µM |
| Cc1ccnc2c1NC(=O)c1cccnc1N2C1CC1 | IIIB |  | MTT | 0.19 µM |
| CN[C@H]1CO[C@@H]2OCC[C@H](OC(=O)N[C@@H](Cc3cccc(OC)c3)[C@H](O)CN(CC(C)C)S(=O)(=O)c3ccc4nc(NC(C)C)sc4c3)[C@@H]21 | NL4-3 |  | p24 / luminescence | 0.021 µM |
| Cc1cn([C@H]2C[C@H](N=[N+]=[N-])[C@@H](CO)O2)c(=O)[nH]c1=O | NL4-3 |  | cytopathic effect / MTT | 0.01 µM |
| CCN(CC)CC.COC(=O)CNP(=O)(O)OC[C@H]1O[C@@H](n2cc(C)c(=O)[nH]c2=O)C[C@@H]1F |  |  | cytopathic effect / XTT | 7 µM |
| CC(C)=CCN1C(C)CNc2ccc(Cl)cc2S1(=O)=O | IIIB |  | cytopathic effect / MTT | >4.8 µM |
| Cc1cc(C#N)cc(C)c1Oc1nc(NC2CCC(NCc3ccc(Br)cc3)CC2)nc2ccsc12 | IIIB | NNRTI-resistant (RT K103N) | MTT | ≥0.766 µM |
| Cc1cn([C@H]2C[C@H](N=[N+]=[N-])[C@@H](CO)O2)c(=O)[nH]c1=O | NL4-3 | RT A62V 69SS K70R E79K V118I M184V E203K L210W T215Y | cytopathic effect | >7.5 µM |
| CC(=O)c1cn(Cc2ccncc2)c(Sc2cc(Cl)cc(Cl)c2)c1C(C)C | IIIB |  | cytopathic effect / MTT | 29 µM |
| CO[P@](=O)(c1cc(C)cc(/C=C/C#N)c1)c1c(C(N)=O)[nH]c2ccc(Cl)cc12 | BH10 | Y181C |  | 0.0015 µM |
| Nc1ccn([C@H]2CC[C@@H](CO)O2)c(=O)n1 | IIIB |  | MTT | 0.75 µM |
| CNC(=O)[C@@H](NC(=O)[C@@H](C[C@@H](O)[C@@H](OCc1ccccc1)C(=O)N[C@H](C(=O)NC)C(C)C)OCc1ccccc1)C(C)C |  |  | cytopathic effect / XTT | 0.5 µM |
| Cc1cn([C@H]2C[C@H](N=[N+]=[N-])[C@@H](CO)O2)c(=O)[nH]c1=O | LAI |  | cytopathic effect | 0.004 µg/mL |
| Cc1cn([C@H]2C=C[C@@H](CO)O2)c(=O)[nH]c1=O |  |  | cytopathic effect / XTT | 0.3 µM |
| Cc1cn([C@H]2C[C@H](N=[N+]=[N-])[C@@H](CO)O2)c(=O)[nH]c1=O | IIIB |  | cytopathic effect / MTT | 0.007 µM |
| CNC(=O)[C@@H](NC(=O)[C@H](OCc1ccccc1)[C@H](O)[C@@H](O)[C@@H](OCc1ccccc1)C(=O)N[C@H]1c2ccccc2C[C@H]1O)C(C)C |  |  | cytopathic effect / XTT | 0.2 µM |
| CCN[C@H]1CO[C@@H]2OCC[C@H](OC(=O)N[C@@H](Cc3cccc(OC)c3)[C@H](O)CN(CC(C)C)S(=O)(=O)c3ccc4nc(NC(C)C)sc4c3)[C@@H]21 | NL4-3 | L23I E34Q K43I M46I I50L G51A L63P A71V V82A T91A | p24 / luminescence | 0.0033 µM |
| Cc1cn([C@H]2C[C@H](N=[N+]=[N-])[C@@H](CO)O2)c(=O)[nH]c1=O | IIIB | NNRTI-resistant (RT Y181C) | MTT | 0.00668 µM |
| CNC(=O)CSP(=O)(NCC(=O)OC)OC[C@H]1O[C@@H](n2cc(C)c(=O)[nH]c2=O)C[C@@H]1OC(C)=O |  |  | cytopathic effect / XTT | >100 µM |
| CC(C)=CCN1Cc2cc(Cl)cc3[nH]c(=S)n(c23)C[C@@H]1C |  | RT-L74V |  | <1.5 µM |
| CC(C)CN(C[C@@H](O)[C@H](Cc1ccccc1)NC(=O)O[C@H]1CCOC1)S(=O)(=O)c1ccc(N)cc1 | IIIB |  | cytopathic effect / MTT | 0.12 µM |
| O=C(CSc1sc(Cl)nc1-c1ccc(Br)cc1Br)Nc1cccnc1Cl | IIIB |  | MTT | 2.67 µM |
| NC(N)=NCCC[C@H](N)C(=O)NC[C@H]1O[C@H](O[C@H]2C(O)[C@@H](O[C@H]3O[C@H](CO)[C@@H](O)[C@H](NC(=O)[C@@H](N)CCCN=C(N)N)[C@H]3O)[C@H](NC(=O)[C@@H](N)CCCN=C(N)N)C[C@@H]2NC(=O)[C@@H](N)CCCN=C(N)N)[C@H](O)[C@@H](O)[C@@H]1O | AMD3100-resistant |  | cytopathic effect / MTT | >113 µM |
| Nc1nc(-c2ccc(Br)cc2Br)c(SCC(=O)Nc2ccccc2N)s1 | IIIB |  | MTT | >33.04 µM |
| CC(C)=CCN1C(=O)c2cccn2-c2ccc(Cl)cc2S1(=O)=O | IIIB |  | cytopathic effect / MTT | 0.97 µM |
| Nc1ccn([C@H]2CC[C@@H](CO)O2)c(=O)n1 |  |  | cytopathic effect / XTT | 0.1 µM |
| CC1(C)S[C@@H]2[C@H](NC(=O)Cc3ccccc3)C(=O)N2[C@H]1C(=O)NCCNC(=O)[C@@H]1N2C(=O)[C@@H](NC(=O)Cc3ccccc3)[C@H]2SC1(C)C | RF |  | p24 | >100 µM |
| C#CCN1C(=O)c2cccn2-c2ccc(Cl)cc2S1(=O)=O | IIIB |  | cytopathic effect / MTT | >66.6 µM |
| Cc1cc(C#N)cc(C)c1Oc1nc(Nc2ccc(C#N)cc2)nc(N)c1Br | IIIB | E138K | MTT | 0.008 µM |
| CNNC(=O)c1cn(Cc2ccncc2)c(Sc2ccccc2)c1C(C)C | IIIB |  | cytopathic effect / MTT | >200 µM |
| CNC(=O)C(NC(=O)[C@H](OCc1ccccc1C)[C@H](O)[C@@H](O)[C@@H](OCc1ccccc1C)C(=O)N[C@H](C(=O)NC)C(C)C)C(C)C |  |  | cytopathic effect / XTT | 0.4 µM |
| CC(C)CN(C[C@@H](O)[C@H](Cc1ccccc1)NC(=O)O[C@H]1CCO[C@H]2OCC[C@H]21)S(=O)(=O)c1ccc2nc(NC3CC3)sc2c1 | NL4-3 | L10I M46L I54V V82A | p24 / luminescence | 0.0032 µM |
| O=C(CSc1sc(Cl)nc1-c1ccc(Br)cc1Br)Nc1ccc(Cl)cc1Cl | IIIB |  | MTT | >159 µM |
| CCOC1=C(c2ccc(CO[C@@H](C(=O)N[C@H](C(=O)NC)C(C)C)[C@H](O)[C@@H](O)[C@@H](OCc3ccc(C4=C(OCC)C(=O)CCC4)cc3)C(=O)N[C@H](C(=O)NC)C(C)C)cc2)CCCC1=O |  |  | cytopathic effect / XTT | 0.2 µM |

The first 3 rows once more:

smiles	strain	changes	method	value
CC(C)=CCN1C(C)C(=O)Nc2ccc(Cl)cc2S1(=O)=O	IIIB		cytopathic effect / MTT	0.8 µM
CCC[C@@]1(CCc2ccccc2)CC(O)=C([C@H](CC)c2cccc(NS(=O)(=O)c3ccc(C(F)(F)F)cn3)c2)C(=O)O1	IIIB		cytopathic effect / MTT	0.376 µM
COC(=O)[C@@H](NC(=O)Cc1ccccc1)[C@@H]1N[C@@H](C(=O)NCCNC(=O)[C@@H]2N[C@@H]([C@H](NC(=O)Cc3ccccc3)C(=O)OC)SC2(C)C)C(C)(C)S1	RF		cytopathic effect	>100 µM